Pooled drug test results. Numbers come from NIAID ChemDB, via PubChem.

All rows: toxicity to cultured cells; cell line: HepG2.2.15; method: MTT; measure: CC50

Rows are shuffled and stem from different studies. CCn is the concentration with n% toxicity to the cells.

SMILES,value
Cc1ccc(CNc2ccc3nc[nH]c3c2)o1,>50 µM
C[C@H](Cn1cnc2c(N)ncnc21)OCP(=O)(O)O,>1740 µM
OC[C@H]1OC2OC[C@H](c3ccc(O)c(O)c3)OC2[C@@H](O[C@@H]2OC[C@](O)(CO)[C@H]2O)[C@@H]1O,>2000 µM
Nc1cc(F)c(S(=O)(=O)N2CCC(O)CC2)cc1C(=O)Nc1ccc(Cl)c(C(F)F)c1,30.1 µM
CCOC(=O)c1c(CSc2ccccc2)nc2c(O)c(CN3CCN(C)CC3)c(Br)cn12,31.5 µM
COC(=O)[C@]12C3=C([C@H](C)O[C@H]1[C@@H]1C4=C(C(=O)OCC4=C[C@@]45C6=C(C(=O)OCC6)[C@@H](C[C@@H]14)OC5C)[C@H]2O)[C@@H](O)OCC3,>830 µM
CNC(=O)c1cnc(SC)nc1Nc1ccc2cn[nH]c2c1,>100 µg/mL
CCOC(=O)C1=C(CN2CCC(C)CC2)NC(c2c(F)cc(F)cc2F)=NC1c1ccc(F)cc1Cl,32.98 µM
CCOC(=O)c1c(CSc2ccc(F)cc2)nc2c(O)c(CN3CCCCC3)c(Br)cn12,27.8 µM
C=C(C)[C@@H]1CC[C@]2(C(=O)OC)CC[C@]3(COC(=O)c4ccccc4)C(CCC4[C@@]5(C)CC[C@H](OC(C)=O)CC5C(C)(C)C[C@]43C)C12,127.2 µM
C[C@H]1OC(=O)[C@@H](O)CC2[C@]3(C)CC[C@@]45C(=O)O[C@@H](C[C@@]6(C)CC[C@](C)(CO)CC64)[C@]5(C)C3CC[C@@]21C,392.5 µM
CCOC(=O)C1=C(CN2CCCCC2)NC(c2c(F)cc(F)cc2F)=NC1c1ccc(F)cc1Cl,25.21 µM
CC(=O)c1c(O)c(C(C)C)cc2c(c1=O)C[C@@]1(O)CCCC(C)(C)C1CC2,>1210 µM
C[C@@]12C(=O)N(CCc3ccc(O)cc3)C(=O)[C@]1(C)C1CCC2O1,0.071 µM
CC[C@]12CCC(C)(C)CC1[C@]1(CC(=O)O)CC[C@@]3(C)C4C[C@H](O)C(=O)O[C@H](C)[C@@]4(C)CCC3[C@@]1(C)CC2,84.6 µM
CC1O[C@H]2[C@@H]3C4=C(C(=O)OCC4=C[C@@]45C6=C(C(=O)OCC6)[C@@H](C[C@@H]34)OC5C)[C@H]3O[C@H](O)[C@@H]1C1=CCOC(=O)[C@@]132,>2540 µM
CC(C)[C@@H](C)/C=C/[C@@H](C)[C@H]1CCC2C3=C[C@@H](O)[C@@]4(O)C[C@@H](O)CC[C@]4(C)C3CC[C@@]21C,89.6 µM
C/C=C(/C)C(=O)O[C@@H]1c2cc(OC)c(OC)c(OC)c2-c2c(cc3c(c2OC)OCO3)C[C@H](C)[C@@]1(C)O,249 µg/mL
CCOC(=O)c1c(CSc2ccccc2)nc2c(O)c(CN3CCCCC3)c(Br)cn12,14.2 µM
Clc1ccc(COC(Cn2ccnc2)c2ccc(Cl)cc2Cl)c(Cl)c1,22.5 µM
CCOC(=O)c1c(CSc2ccc(Br)cc2)nc2c(O)c(CN(C)C)c(Br)cn12,126.2 µM
C/C=C(/C)C(=O)Oc1c(OC)c(OC)cc2c1-c1c(cc3c(c1OC)OCO3)C[C@H](C)[C@@](C)(O)C2,26.48 µM
COC(=O)c1cc(OC)c2c(c1-c1c(C(=O)O[C@H]3[C@H](F)[C@H](n4ccc(N)nc4=O)O[C@@]3(CO)N=[N+]=[N-])cc(OC)c3c1OCO3)OCO2,965.4 µM
COc1cc2c(c(OC)c1OC)-c1c(cc3c(c1OC)OCO3)C[C@H](C)[C@H](C)[C@@H]2OC,>1000 µg/mL
C[C@H]1C(O)CCC2[C@]3(C)CC[C@@]4(C)C5CC(C)(C)CC[C@]5(C)CC[C@]4(C)C3CC[C@@]21C,329.2 µM
CCCCC/C=C\CCCCCCCC(O)/C=C/C=C/C(=O)NCC(C)C,1560 µM
CCOC(=O)c1c(CSc2ccc(Br)cc2)nc2c(O)c(CN3CCOCC3)c(Br)cn12,8.2 µM
CCCCCCCCCCCCCCCC(=O)O,1560 µM

A second listing of 4 rows from above:

| SMILES | value |
|---|---|
| Nc1cc(F)c(S(=O)(=O)N2CCC(O)CC2)cc1C(=O)Nc1ccc(Cl)c(C(F)F)c1 | 30.1 µM |
| CC1O[C@H]2[C@@H]3C4=C(C(=O)OCC4=C[C@@]45C6=C(C(=O)OCC6)[C@@H](C[C@@H]34)OC5C)[C@H]3O[C@H](O)[C@@H]1C1=CCOC(=O)[C@@]132 | >2540 µM |
| C[C@H]1OC(=O)[C@@H](O)CC2[C@]3(C)CC[C@@]45C(=O)O[C@@H](C[C@@]6(C)CC[C@](C)(CO)CC64)[C@]5(C)C3CC[C@@]21C | 392.5 µM |
| CCOC(=O)c1c(CSc2ccc(F)cc2)nc2c(O)c(CN3CCCCC3)c(Br)cn12 | 27.8 µM |